Results published in patent US11980631B2, “β-lactamase inhibitors” (priority 2017, dated 2024).
Where two headings read alike, the source gives them in different places.

Sequences of proteins named here, by UniProt entry; tags and fusion partners are left off. Residues count along the entry.
UniProt P9WKD3, 35-307 limits assumed: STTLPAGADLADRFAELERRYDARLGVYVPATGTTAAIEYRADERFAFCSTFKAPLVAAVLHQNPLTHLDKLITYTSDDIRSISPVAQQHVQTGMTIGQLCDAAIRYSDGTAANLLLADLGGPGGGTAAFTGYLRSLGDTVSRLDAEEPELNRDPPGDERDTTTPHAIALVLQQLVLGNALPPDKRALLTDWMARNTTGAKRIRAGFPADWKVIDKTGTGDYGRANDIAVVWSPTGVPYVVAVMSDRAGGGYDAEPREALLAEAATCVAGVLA
UniProt P96465, 36-303 limits assumed: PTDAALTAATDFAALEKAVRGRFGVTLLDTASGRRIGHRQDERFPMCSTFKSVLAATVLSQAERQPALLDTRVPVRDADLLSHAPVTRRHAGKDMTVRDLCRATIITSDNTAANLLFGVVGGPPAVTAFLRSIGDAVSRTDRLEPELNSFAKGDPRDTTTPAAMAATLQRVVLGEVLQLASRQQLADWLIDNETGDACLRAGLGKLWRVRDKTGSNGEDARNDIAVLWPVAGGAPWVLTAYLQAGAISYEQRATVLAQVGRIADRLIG
UniProt P52700, 34-290 limits assumed: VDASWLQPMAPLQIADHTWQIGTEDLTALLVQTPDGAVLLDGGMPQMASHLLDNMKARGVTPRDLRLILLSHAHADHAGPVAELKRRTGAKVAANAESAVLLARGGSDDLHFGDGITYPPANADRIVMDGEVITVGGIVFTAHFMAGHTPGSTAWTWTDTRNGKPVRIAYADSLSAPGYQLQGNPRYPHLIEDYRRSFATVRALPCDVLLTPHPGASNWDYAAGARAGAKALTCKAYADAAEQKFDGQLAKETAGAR

Columns and labels:
BlaC = BlaC (Mycobacterium tuberculosis (strain ATCC 25618 / H37Rv), UniProt P9WKD3); assay: BlaC inhibition assay (FC5 hydrolysis, fluorescence); type: biochemical
L2 = L2 (Stenotrophomonas maltophilia (Pseudomonas maltophilia) (Xanthomonas maltophilia), UniProt P96465); assay: Inhibition of purified L2, fluorogenic substrate FC5 as reporter
S. maltophilia = conditions: inhibitor at 2 mg/L
L1 MBL = L1 MBL (Stenotrophomonas maltophilia (Pseudomonas maltophilia) (Xanthomonas maltophilia), UniProt P52700); assay: Inhibition of purified L1, fluorogenic substrate FC5 as reporter; conditions: inhibitor concentrations up to 2.5 mM
[1] = tested on: L1 β-lactamase production in S. maltophilia K279a; assay: L1 β-lactamase induction by β-lactamase inhibitors (meropenem hydrolysis in cell extracts); conditions: 50 μg.mL^−1 inducer

For `O=C(O)c1cccc2c1O[B-](O)(O)[C@@H](NC(=O)C1CCCCC1)C2`, the pIC50 (BlaC; pre-incubation time 0 min) was 6.83 ± 0.01, the pIC50 (BlaC; pre-incubation time 10 min) was 6.8 ± 0.1 and the pIC50 (BlaC; pre-incubation time 60 min) was 6.94 ± 0.01.
For `NCc1ccc(C(=O)N[C@H]2Cc3cccc(C(=O)O)c3O[B-]2(O)O)cc1`, the IC50 (L2) was 5.25 nM, the pIC50 (L2) was 8.27 and the “MIC of aztreonam in the presence of the β-lactamase inhibitor” value (S. maltophilia; CI-20) was 2 µg/mL. The “MIC of ceftazidime in the presence of the β-lactamase inhibitor” value (S. maltophilia; CI-20) was 2 µg/mL, the “MIC of meropenem in the presence of the β-lactamase inhibitor” value (S. maltophilia; CI-20) was 8 µg/mL and the “MIC of aztreonam in the presence of the β-lactamase inhibitor” value (S. maltophilia; CI-29) was 1 µg/mL. For the same compound, the “MIC of ceftazidime in the presence of the β-lactamase inhibitor” value (S. maltophilia; CI-29) was 0.5 µg/mL, the “MIC of meropenem in the presence of the β-lactamase inhibitor” value (S. maltophilia; CI-29) was 8 µg/mL and the “MIC of ceftazidime in the presence of the β-lactamase inhibitor” value (S. maltophilia; CI-31) was 128 µg/mL. The “MIC of meropenem in the presence of the β-lactamase inhibitor” value (S. maltophilia; CI-31) was 256 µg/mL, the “MIC of aztreonam in the presence of the β-lactamase inhibitor” value (S. maltophilia; CI-31, listed as 2) was ≤ 4 µg/mL and the “MIC of aztreonam in the presence of the β-lactamase inhibitor” value (S. maltophilia; CI-31, listed as BOR) was 4 µg/mL. For the same compound, the “MIC of aztreonam in the presence of the β-lactamase inhibitor” value (S. maltophilia; K279a) was 1 µg/mL, the “MIC of ceftazidime in the presence of the β-lactamase inhibitor” value (S. maltophilia; K279a) was 0.5 µg/mL and the “MIC of meropenem in the presence of the β-lactamase inhibitor” value (S. maltophilia; K279a) was 4 µg/mL. For the same compound, the “MIC of aztreonam in the presence of the β-lactamase inhibitor” value (S. maltophilia; K AMI 32) was 1 µg/mL, the “MIC of ceftazidime in the presence of the β-lactamase inhibitor” value (S. maltophilia; K AMI 32) was 1 µg/mL and the “MIC of meropenem in the presence of the β-lactamase inhibitor” value (S. maltophilia; K AMI 32) was 4 µg/mL. For the same compound, the “MIC of aztreonam in the presence of the β-lactamase inhibitor” value (S. maltophilia; K CAZ 10) was 1 µg/mL, the “MIC of ceftazidime in the presence of the β-lactamase inhibitor” value (S. maltophilia; K CAZ 10) was 4 µg/mL and the “MIC of meropenem in the presence of the β-lactamase inhibitor” value (S. maltophilia; K CAZ 10) was 16 µg/mL. The “MIC of aztreonam in the presence of the β-lactamase inhibitor” value (S. maltophilia; K MOX 8) was 1 µg/mL, the “MIC of ceftazidime in the presence of the β-lactamase inhibitor” value (S. maltophilia; K MOX 8) was 0.5 µg/mL and the “MIC of meropenem in the presence of the β-lactamase inhibitor” value (S. maltophilia; K MOX 8) was 8 µg/mL. The “ability to potentiate β-lactams / reverse resistance (in words)” value (S. maltophilia; β-lactam and strain named in the value) was “reduce ceftazidime MICs against K279a”, the pIC50 (BlaC; pre-incubation time 0 min) was 7.63 ± 0.08 and the pIC50 (BlaC; pre-incubation time 10 min) was 8. For the same compound, the pIC50 (BlaC; pre-incubation time 60 min) was >8, the “inhibition of L1 (in words)” value (L1 MBL) was “does not inhibit the class B3 MBL, L1” and the “induction of L1 production (in words)” value [1] was “neither avibactam nor 2 induces L1 to any measurable extent”.
